In PMC12421817, “c-di-GMP regulates bacterial NAD biosynthesis via targeting the transcriptional repressor NadR” (mBio, 2025):
The exact form of at least one protein or probe is not confirmed. Weaker means in comparison with the reference protein, sequence or condition of that experiment. Where a protein sequence is shown, tags need not be part of it.

Target: T1, NadR (Salmonella enterica serovar Typhimurium) (UniProt P24518)
T1 sequence (looked up): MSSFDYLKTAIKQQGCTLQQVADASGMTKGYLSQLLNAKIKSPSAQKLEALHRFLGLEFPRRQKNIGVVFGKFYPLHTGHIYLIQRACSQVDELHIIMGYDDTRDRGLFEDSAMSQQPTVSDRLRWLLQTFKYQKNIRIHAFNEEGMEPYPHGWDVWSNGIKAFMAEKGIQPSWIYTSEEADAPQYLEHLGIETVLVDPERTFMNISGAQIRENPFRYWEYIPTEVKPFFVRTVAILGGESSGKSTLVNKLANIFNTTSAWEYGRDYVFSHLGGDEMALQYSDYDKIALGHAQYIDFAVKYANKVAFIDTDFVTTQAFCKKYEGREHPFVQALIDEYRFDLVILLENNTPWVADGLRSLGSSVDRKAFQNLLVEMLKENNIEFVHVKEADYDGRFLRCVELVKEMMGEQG
Assay: EMSA
Details: EMSA: 50 ng DNA, 20 mM Tris pH 7.5, 100 mM NaCl, 10% glycerol, 4 mM MgCl2, 1% NP-40, 1 mM DTT, 25 uL, 20 min room temperature, 6% native PAGE, 0.5x TBE, SYBR Safe, recombinant protein, residues 1-410, protein details: N-terminal His6 (pET28a), probe letters rebuilt from the primers and the genome

Row | Sequence | binding result (ATP + NAD, increasing c-di-GMP) | binding result (ATP)
1 | GGTTCTTGTTTAATTTACTAAACATGGTTGCGGCAGATTAGCACTATATGGCGCTAAAAAGCACGTTATGATTTCGCTGGTGTTGTGCTTATTAAACATAAAATAAAAATACGGCGAGAGATAAACGGCAAAAAATATTTTATAGGGCAGGGTGTTAGCGTCGGATTTTGTAGTGAAATAAAGATGCTGTTAGGTTACTC (double strand) [nadB promoter] | binds more weakly | binds more weakly
2 | GCTCATCGTGGCTTCTCGTTTTACTGACTTAACGAAACAACCGAATGAAAGCGTAATAAACGCCACAATCGGTTAATTTGTTTTATATGCTAAACAAGATAGCTGATTCAATAAGGAAAGTCACAATAATTACGTAGCCCCGTATCTGATGGCGGCGTAACGTCTTATCTGGCCTACGTGAGCGGTGCCGTCTGTAGGCCTGAT (double strand) [nadA-pnuC promoter] | binds more weakly | binds more weakly
